A mixed list of measured activities; the numbers were collected in NIAID ChemDB.

Shared fields: whole-cell or culture tests; agent: HIV-1; method: syncytia; endpoint: EC50

Conditions beyond the fields shown may differ between rows. An empty or dashed field is not shown. ECn is the concentration giving n% inhibition of infection, replication or growth.

smiles,changes,strain or isolate,cell line,conditions,value
C/C1=C\C=C\C2(C)C=C(CO)C(C)CC23OC([O-])C(C3=O)C(O)/C=C/C2(C)C=C(C=O)C(C)CC23OC([O-])C(C3=O)C(O)/C(C)=C/C=C/C2C=C(CO)C(C)CC23OC([O-])C(C3=O)C(O)/C=C/C2(C)C=C(C=O)C(C)CC23OC([O-])C(C3=O)C1O,,IIIB,MOLT-4/(MOLT-4/1(IIIB) + MOLT-4,,>100 µg/mL
O=C(c1cc2c([nH]c3ccccc32)c(-c2cccs2)n1)N1CCC(c2ccccc2Cl)CC1,,IIIB,C8166,,>200 µM
CCOC(=O)COc1cc(NC(=S)OC(C)C)ccc1Cl,RT-E138K,,CEM,,15.06 µM
Cc1cc(C)cc(Sc2c(C(C)C)c(=O)[nH]c(=S)n2COCCO)c1,RT-E138K,IIIB,CEM,,0.05 µM
CC[C@@H](C)OC(=S)Nc1ccc(Cl)c(C(=O)OC(C)C)c1,,IIIB,CEM,,0.061 µM
CCc1c(Sc2ccccc2)n(COCc2ccccc2)c(=S)[nH]c1=O,RT-L100I,IIIB (TIBO 82150) (RT-L100I),CEM,,0.03 µM
CC(C)OC(=O)Oc1cc(NC(=S)OC(C)C)ccc1Cl,RT-Y181C,,CEM,,18.08 µM
CCOCn1c(Cc2ccccc2)c(C(C)C)c(=O)[nH]c1=O,RT-Y188H,IIIB,CEM,,17 µM
CC(CO)NC(=O)c1ccc2c(c1)nc(NCc1cccc3ccccc13)n2C1CCCCCC1,,,H9,20% FBS,1 µM
Cc1ccc(C)c(C(CC(C)C)S(=O)(=O)c2cccc[n+]2[O-])c1,,IIIB,CEM,,>4 µg/mL
CC(C)OC(=S)Nc1ccc(Cl)c(C(=O)OC2(C)COC2)c1,,IIIB,CEM,,0.145 µM
Cc1cccc(CNc2nc3cc(C(=O)NC(C)CO)ccc3n2C2CCCCCC2)c1F,,,H9,2% FBS,0.8 µM
CCCCCCCCCCCCCC(=O)OC[C@H]1O[C@@H](n2cc(C)c(=O)[nH]c2=S)C[C@@H]1F,,,MT-2,,~0.05 µM
CCc1c(Sc2cc(C)cc(C)c2)n(COCc2ccccc2)c(=O)[nH]c1=O,RT-E138K,IIIB,CEM,,0.009 µM
O=C(O)c1ccc(-c2c3nc(c(-c4ccc(C(=O)O)cc4)c4ccc([nH]4)c(-c4ccc(C(=O)O)cc4)c4nc(c(-c5ccc(C(=O)O)cc5)c5ccc2[nH]5)C=C4)C=C3)cc1,,IIIB,HuT-78 + HUT 78,,10 µg/mL
NC/C=C/Cn1cc(F)c(=O)[nH]c1=O,,,CEM,,>100 µM
CN1C(=O)[C@@H](c2cc(Cl)c(O)c(Cl)c2)NC(=O)[C@@H]2NC(=O)[C@H](c3cc(Cl)c(O)c(Cl)c3)NC(=O)[C@@H](NC(=O)C(=O)c3cc(Cl)c(O)c(Cl)c3)Cc3c[nH]c4cc(ccc34)-c3cc2cc(c3O)Oc2ccc(cc2)C[C@H]1C(=O)N[C@@H](C(=O)O)c1ccc(O)cc1,,IIIB,MOLT-4,,0.5 µM
CCSCCCCCCCCCCCC(=O)OC[C@H]1O[C@@H](n2cc(C)c(=O)[nH]c2=S)C[C@@H]1F,,,MT-2,,~0.05 µM
COc1cccnc1SCc1cc(C)ccc1C,,IIIB,CEM,,1.7 µg/mL
Cc1cccc(CNc2nc3cc(C(=O)NC(C)(CO)CO)ccc3n2C2CCCCCC2)c1F,,,H9,20% FBS,0.4 µM
N#C/C(=C/c1c(Cl)cccc1Cl)S(=O)(=O)c1cccc[n+]1[O-],,IIIB,CEM,,>4 µg/mL
O=S(=O)(Oc1ccc(N=Nc2ccc(N=Nc3ccc(OS(=O)(=O)c4ccc(Cl)cc4)c4ncccc34)cc2)c2cccnc12)c1ccc(Cl)cc1,,IIIB,C8166,,4.01 µg/mL
O=C(O)C(O[C@@H]1C=C[C@H](n2cc(F)c(=O)[nH]c2=O)C1)P(=O)(O)O,,IIIB,CEM,,>250 µM
O=C(O)c1cn(-c2cccc(N3CCOCC3)c2)c2nc(N3CCN(c4ccc(F)cc4)CC3)c(F)cc2c1=O,,,PBL,,0.6 µM
Cc1ccc(C)c(CS(=O)(=O)c2c(O)ccc[n+]2[O-])c1,,IIIB,CEM,,45 µg/mL
O=C1c2ccccc2C(=O)N1CC1OC1CBr,,,CEM,,>20 µM
Cc1ccc(C)c(CSc2ccc(Cl)c[n+]2[O-])c1,,IIIB,CEM,,>100 µg/mL
COc1ccc(C)cc1CS(=O)(=O)c1cccc[n+]1[O-],RT-E138K,IIIB,CEM,,48 µg/mL
CC1=C(C(=O)Nc2ccc(Cl)c(C(=O)OC(C)C)c2)SCCO1,RT-L100I,,CEM,,≥5.89 µM
Cc1cn([C@H]2C=C[C@@H](OC(C(=O)O)P(=O)(O)O)C2)c(=O)[nH]c1=O,,IIIB,CEM,,>250 µM
N#CC(c1ccc(F)cc1)S(=O)c1cccc[n+]1[O-],,IIIB,CEM,,>0.16 µg/mL
C=CCSc1cc(NC(=S)OC(C)C)ccc1Cl,RT-V106A,,CEM,,1.593 µM
CCC(c1cc(C)ccc1C)S(=O)(=O)c1cccc[n+]1[O-],,IIIB,CEM,,>20 µg/mL
CC(C)OC(=S)Nc1ccc(Cl)c(C(=O)OC(C)(C)C)c1,,IIIB,CEM,,0.121 µM
O=[N+]([O-])c1ccc(SCc2ccccc2)nc1,,IIIB,CEM,,>20 µg/mL
Cc1ccc(C)c(CS(=O)c2ccc(Cl)c[n+]2[O-])c1,,HE,CEM,,4 µg/mL
CC(Cl)(c1ccccc1)S(=O)(=O)c1cccc[n+]1[O-],,IIIB,CEM,,>4 µg/mL
CC(CO)NC(=O)c1ccc2c(c1)nc(NCc1ccccc1)n2C1CCCCCC1,,,H9,2% FBS,1.5 µM
CC(C)OC(=S)Nc1ccc(Cl)c(C(=O)OC(C(C)C)C(C)C)c1,RT-L100I,,CEM,,>2.689 µM
CC(C)c1c(Sc2ccccc2)n(COCCO)c(=O)[nH]c1=O,RT-E138K,IIIB,CEM,,0.25 µM
O=C1c2ccccc2C(=O)N1C/C=C/Cn1cnc2c(Cl)ncnc21,,,CEM,,>100 µM
O=C(c1cc2c([nH]c3ccccc32)c(-c2cccs2)n1)N1CCC(c2cccc(Cl)c2)CC1,,IIIB,C8166,,17.8 µM
NC/C=C/Cn1cc(C(F)(F)F)c(=O)[nH]c1=O,,,CEM,,>50 µM
COC(=O)c1cc(NC(=S)OC(C)C)ccc1Cl,RT-V106A,,CEM,,≥34.75 µM
COc1ccccc1N1CCN(c2c(F)cc3c(=O)c(C(=O)O)cn(-c4cccc(N5CCOCC5)c4)c3c2Cl)CC1,,,PBL,,0.5 µM
CCOCn1c(Sc2cc(C)cc(C)c2)c(CC)c(=O)[nH]c1=S,Nevirapine resistant (RT Y181C),IIIB,CEM,,0.07 µM
O=C(c1cc2c([nH]c3ccccc32)c(-c2cccs2)n1)N1CCC(Cc2ccccc2)CC1,,IIIB,C8166,,12.5 µM
CC(C)OC(=S)Nc1ccc(Cl)c(C(=O)OCC[Si](C)(C)C)c1,,IIIB,CEM,,0.535 µM
Cc1ccc[n+]([O-])c1S(=O)(=O)Cc1cccc([N+](=O)[O-])c1C,,IIIB,CEM,,≥4 µg/mL
C=CCOC(=O)c1cc(NC(=S)OC(C)C)ccc1Cl,RT-Y181C,,CEM,,2.709 µM
NC/C=C/Cn1ccc(=O)[nH]c1=O,,,CEM,,>100 µM
C=CCOc1cc(NC(=S)OC(C)C)ccc1Cl,RT-V106A,,CEM,,6.998 µM
O=C(O)c1cn(-c2cccc(N3CCOCC3)c2)c2cc(N3CCN(c4ccc(F)cc4)CC3)c(F)cc2c1=O,,,PBL,,0.3 µM
CC(C)OC(=O)c1cc(NC(=S)SC(C)C)ccc1Cl,RT-L100I,,CEM,,>30.13 µM
CCCCCCCCOc1ccc(/C=C(/C#N)Sc2cccc[n+]2[O-])cc1,,IIIB,CEM,,>20 µg/mL
C#CCOC(=O)c1cc(NC(=S)OC(C)C)ccc1Cl,RT-V106A,,CEM,,≥32.07 µM
Cc1cn([C@H]2C[C@H](N=[N+]=[N-])[C@@H](CO)O2)c(=O)[nH]c1=O,,IIIB,C8166,,0.01145 µM
O=C1c2ccccc2C(=O)N1C/C=C\Cn1ccc(=O)[nH]c1=O,,,CEM,,>100 µM
CCCCNC(=O)c1ccc2c(c1)nc(NCc1cccc3ccccc13)n2C1CCCCCC1,,,H9,2% FBS,0.6 µM
O=C1c2ccccc2C(=O)N1C/C=C/Cn1cc(F)c(=O)[nH]c1=O,,,CEM,,>20 µM
Cc1ccc(C)c(C(CC(=O)O)S(=O)(=O)c2cccc[n+]2[O-])c1,,IIIB,CEM,,>20 µg/mL
O=C(c1cc2c([nH]c3ccccc32)c(-c2cccs2)n1)N1CCC(c2ccncc2)CC1,,IIIB,C8166,,60.8 µM
Cc1c(Cl)ccc(C(C)S(=O)c2cccc[n+]2[O-])c1Cl,,IIIB,CEM,,>0.16 µg/mL
O=C(O)c1cn(-c2cccc(N3CCOCC3)c2)c2c(Cl)c(N3CCN(c4ccccc4)CC3)c(F)cc2c1=O,,,PBL,,0.45 µM
CCCSC(=Nc1ccc(Cl)c(C(=O)OC(C)C)c1)OC(C)C,,IIIB,CEM,,1.81 µM
COC(=O)C(c1cc(C)ccc1C)S(=O)(=O)c1cccc[n+]1[O-],,IIIB,CEM,,2.2 µg/mL
O=C(O)c1cn(-c2cccc(N3CCOCC3)c2)c2cc(N3CCN(c4ccccc4)CC3)c(F)cc2c1=O,,,PBL,,0.6 µM
Cc1ccc(C)c(C(C)S(=O)c2cccc[n+]2[O-])c1,,IIIB,CEM,,>0.8 µg/mL
CS(=O)(=O)Oc1ccc(N=Nc2ccc(N=Nc3ccc(OS(C)(=O)=O)c4ncccc34)cc2)c2cccnc12,,IIIB,C8166,,3.41 µg/mL
CSc1ccc(NC(=S)OC(C)C)cc1C(=O)OC(C)C,RT-Y181C,,CEM,,5.191 µM
CCc1c(Sc2cc(C)cc(C)c2)n(COCc2ccccc2)c(=S)[nH]c1=O,RT-Y181I,IIIB,CEM,,0.24 µM
O=C1c2ccccc2C(=O)N1CC1OC1CCl,,,CEM,,>100 µM
CC(C)OC(=O)c1cc(NC(=S)OCC2(C)COC2)ccc1Cl,RT-L100I,,CEM,,>29.94 µM
O=S(=O)(Cc1c(Cl)ccc(Cl)c1Cl)c1cccc[n+]1[O-],,IIIB,CEM,,≥4 µg/mL
CCOCn1c(Sc2ccccc2)c(C(C)C)c(=O)[nH]c1=O,RT-E138K,IIIB,CEM,,0.45 µM
COC(=O)C(c1cccc(Oc2ccccc2)c1)S(=O)(=O)c1cccc[n+]1[O-],,IIIB,CEM,,>4 µg/mL
CCc1ccc(S(=O)(=O)Oc2ccc(N=Nc3ccc(N=Nc4ccc(OS(=O)(=O)c5ccc(CC)cc5)c5ncccc45)cc3)c3cccnc23)cc1,,IIIB,C8166,,2.59 µg/mL

5 of the rows above, restated:

O=C(O)c1cn(-c2cccc(N3CCOCC3)c2)c2nc(N3CCN(c4ccc(F)cc4)CC3)c(F)cc2c1=O ; cell line: PBL ; value: 0.6 µM
CCCCCCCCOc1ccc(/C=C(/C#N)Sc2cccc[n+]2[O-])cc1 ; strain or isolate: IIIB ; cell line: CEM ; value: >20 µg/mL
O=C(O)c1cn(-c2cccc(N3CCOCC3)c2)c2c(Cl)c(N3CCN(c4ccccc4)CC3)c(F)cc2c1=O ; cell line: PBL ; value: 0.45 µM
NC/C=C/Cn1ccc(=O)[nH]c1=O ; cell line: CEM ; value: >100 µM
CCSCCCCCCCCCCCC(=O)OC[C@H]1O[C@@H](n2cc(C)c(=O)[nH]c2=S)C[C@@H]1F ; cell line: MT-2 ; value: ~0.05 µM